Measured values from several laboratories, pooled; numbers as filed in NIAID ChemDB.

All rows: whole-cell or culture tests; species: HIV-1; endpoint: EC50

Neighbouring rows are from separate reports. ECn: concentration that inhibits the pathogen or its effect by n%. Blank or dashed fields: not listed here.

CC(C)n1ccn2cc(C(=O)NCc3ccc(F)cc3F)c(=O)c(O)c2c1=O ; changes: E138K/Q148K ; cell line: HEK 293 ; read by: luciferase ; result: 0.0651 µM
Cn1cc(C(=O)O)c(=O)c2cc(N)c(N3CCN(c4ccccn4)CC3)cc21 ; strain: IIIB ; cell line: H9(HIV-1(IIIB)) + H9 ; read by: RT activity ; result: 0.85 µM
COCc1nc(Nc2ccc(C#N)cc2)nc(Nc2c(C)cc(/C=C/C#N)cc2C)c1C(=O)NCCN(C)C ; strain: MDR ; cell line: MT4 CMV-EGFP ; result: 2.04 µM
O=C(O)C(O)c1ccccc1 ; strain: R5 clinical isolate ; cell line: Macrophage ; read by: p24 ; result: <100 µg/mL
COc1ccc2c(CN(CCCCN)Cc3ncccc3C)nccc2c1 ; cell line: U87.CD4.CXCR4 ; read by: entry / luminescence ; result: 3.85 µM
C#C[C@]1(COC(=O)CCCCCCCCCCCCCCCC)O[C@@H](n2cnc3c(N)nc(F)nc32)C[C@@H]1O ; strain: NL4-3 ; changes: M184V ; cell line: U373-CD4-CXCR4 ; conditions: pseudotyped ; result: 0.026 µM
COCCNC(=O)c1c(COC)nc(Nc2ccc(C#N)cc2)nc1Nc1c(C)cc(/C=C/C#N)cc1C ; strain: L1001+K103N ; cell line: MT4 CMV-EGFP ; result: 0.00794 µM
O=c1[nH]c(=O)n(COCCO)c2c1CCC2 ; strain: BRU ; cell line: CEM-C113 + CEM/C113 ; read by: cytopathic effect / MTT ; result: >30 µg/mL
CC(C)=CCc1cc(O)cc2c1OC(C)(C)CC2=O ; cell line: HeLa + C8166 ; read by: MTT ; result: 8 µM
COCc1nc(Nc2ccc(C#N)cc2)nc(Nc2c(C)cc(/C=C/C#N)cc2C)c1C(=O)N1CCN(CCO)CC1 ; strain: K103N + Y181C ; cell line: MT4 CMV-EGFP ; result: 0.372 µM
O=C(NCc1ccc(F)cc1F)c1cn2c(c(O)c1=O)C(=O)NCC2 ; cell line: HEK 293 ; read by: luciferase ; result: 0.0442 µM
[N-]=[N+]=NCCOCn1c2c(c(=O)[nH]c1=O)CCCC2 ; strain: BRU ; cell line: CEM-C113 + CEM/C113 ; read by: cytopathic effect / MTT ; result: >30 µg/mL
CC(C)[C@H](NC(=O)[C@H](CO)NC(=O)[C@H](CS)NC(=O)CCC(=O)NCCCOCCOCCCN)C(=O)N[C@H](C(=O)N[C@@H](CS)C(=O)NCC(=O)O)[C@@H](C)O ; strain: BaL ; cell line: PBMC(PHA STIM.) + PBMC ; read by: p24 ; result: 1.32 µM
CCc1c(-c2coc(CC/C(C)=C/c3ccccc3)n2)oc(OC)c(C)c1=O ; strain: IIIB ; cell line: MOLT-4/IIIB + MOLT-4 ; read by: syncytia ; result: >102 µM
O=C(OC(Cc1ccc(O)c(O)c1)C(=O)O)c1cc(-c2ccc(O)c(O)c2)c2cc(O)c(O)cc2c1 ; strain: NL4-3 ; cell line: HuT-78 ; read by: p24 ; result: >50 µM
C#C[C@]1(COC(=O)CCCCCCC/C=C\C/C=C\C/C=C\CC)O[C@@H](n2cnc3c(N)nc(F)nc32)C[C@@H]1O ; strain: NL4-3 ; cell line: U373-CD4-CXCR4 ; conditions: pseudotyped ; result: 0.021 µM
COCc1nc(Nc2ccc(C#N)cc2)nc(Nc2c(C)cc(/C=C/C#N)cc2C)c1C(=O)N1CCCC(C(N)=O)C1 ; strain: K103N + Y181C ; cell line: MT4 CMV-EGFP ; result: 0.501 µM
Cc1cc(C(O)CNC(C)CCn2cnc3c2c(=O)n(C)c(=O)n3C)ccc1O ; strain: NL4-3 ; cell line: SupT1 ; read by: luminescence ; result: 9.64 µM
O=c1[nH]c(=S)c2c(n1COCCO)CCC2 ; strain: BRU ; cell line: CEM-C113 + CEM/C113 ; read by: cytopathic effect / MTT ; result: >30 µg/mL
CC(C)C1=C2[C@H]3CC[C@@H]4[C@@]5(C)CC[C@H](OC(=O)[C@H]6C[C@@H](C(=O)O)C6(C)C)C(C)(C)[C@@H]5CC[C@@]4(C)[C@]3(C)CC[C@@]2(CCNCc2ccc(Cl)c(Cl)c2)CC1=O ; strain: 92HT599 ; cell line: MT-2 ; read by: p24 / ELISA ; result: <1 µM
C#C[C@]1(COC(=O)CCCCCCCCCCCC)O[C@@H](n2cnc3c(N)nc(F)nc32)C[C@@H]1O ; strain: NL4-3 ; changes: M184V ; cell line: U373-CD4-CXCR4 ; conditions: pseudotyped ; result: 0.012 µM
O=c1[nH]c(=S)c2c(n1COCCO)CCCC2 ; strain: BRU ; cell line: CEM-C113 + CEM/C113 ; read by: cytopathic effect / MTT ; result: >30 µg/mL
CCc1ccc(-c2cn([C@H]3C[C@H]4C(=O)N[C@@H](Cc5c[nH]c6ccccc56)C(=O)N[C@H](C(N)=O)CCCCNC(=O)C[C@H](N)C(=O)N[C@@H](CC(N)=O)C(=O)N[C@@H]([C@@H](C)CC)C(=O)N4C3)nn2)cc1 ; strain: BaL ; cell line: HOS-CD4-CCR5 ; read by: luminescence ; result: 1.9 µM
C#C[C@]1(COC(=O)CCCCCCCCC)O[C@@H](n2cnc3c(N)nc(F)nc32)C[C@@H]1O ; strain: NL4-3 ; changes: M184V ; cell line: U373-CD4-CXCR4 ; conditions: pseudotyped ; result: 0.014 µM
CC(C)[C@H](NC(=O)[C@H](CO)NC(=O)[C@@H](N)CSSCC(=O)O)C(=O)N[C@H](C(=O)N[C@@H](CSSCC(=O)O)C(=O)NCC(=O)O)[C@@H](C)O ; strain: BaL ; cell line: PBMC(PHA STIM.) + PBMC ; read by: p24 ; result: <1.32 µM
O=c1[nH]c(=O)n(COCc2ccccc2)c2c1CCCC2 ; strain: BRU ; cell line: CEM-C113 + CEM/C113 ; read by: cytopathic effect / MTT ; result: >30 µg/mL
COCc1nc(Nc2ccc(C#N)cc2)nc(Nc2c(C)cc(/C=C/C#N)cc2C)c1C(=O)NCCc1ccccn1 ; strain: MDR ; cell line: MT4 CMV-EGFP ; result: 0.372 µM
O=C(NCCCN1CCN(CCCNC(=O)Nc2ccc(Cl)cc2)CC1)Nc1ccc(Cl)cc1 ; strain: NL4-3 ; cell line: SupT1 ; read by: luminescence ; result: 11.98 µM
C#C[C@]1(COC(=O)CCCCCCCCCCCCC)O[C@@H](n2cnc3c(N)nc(F)nc32)C[C@@H]1O ; strain: NL4-3 ; changes: M184V ; cell line: U373-CD4-CXCR4 ; conditions: pseudotyped ; result: 0.01 µM
NS(=O)(=O)c1ccc(Cc2cc3c(cc2F)[C@@](C#CC2CC2)(C(F)(F)F)NC(=O)N3)cc1 ; cell line: PBM ; read by: GFP ; result: 0.132 µM
C#C[C@]1(COC(=O)CCC)O[C@@H](n2cnc3c(N)nc(F)nc32)C[C@@H]1O ; strain: NL4-3 ; changes: M184V ; cell line: U373-CD4-CXCR4 ; conditions: pseudotyped ; result: 0.026 µM
COC(=O)C(C)NP(=O)(OC[C@H]1S[C@H](n2cc(F)c(=O)[nH]c2=O)CC1O)Oc1ccccc1 ; cell line: CEM + CEM TK- ; result: >100 µM
CC(C)CCCC(C)CCN1CCn2cc(C(=O)NCc3ccc(F)cc3F)c(=O)c(O)c2C1=O ; changes: G118R ; cell line: HEK 293 ; read by: luciferase ; result: 0.1027 µM
O=S(=O)(c1cccc2cnccc12)N1CCNCC1 ; strain: IIIB ; cell line: OM-10.1 ; read by: p24 / ELISA ; result: 1.26 µg/mL
C#C[C@]1(COC(=O)CCCCCCCC)O[C@@H](n2cnc3c(N)nc(F)nc32)C[C@@H]1O ; strain: NL4-3 ; changes: M184V ; cell line: U373-CD4-CXCR4 ; conditions: pseudotyped ; result: 0.013 µM
O=c1[nH]c(=O)n(COCCO)c2c1CCCC2 ; strain: BRU ; cell line: CEM-C113 + CEM/C113 ; read by: cytopathic effect / MTT ; result: >30 µg/mL
CC(C)C1=C2[C@H]3CC[C@@H]4[C@@]5(C)CC[C@H](OC(=O)[C@H]6C[C@@H](C(=O)O)C6(C)C)C(C)(C)[C@@H]5CC[C@@]4(C)[C@]3(C)CC[C@@]2(CCN(CCN(C)C)C(=O)c2nccs2)CC1=O ; strain: 92HT599 ; cell line: MT-2 ; read by: p24 / ELISA ; result: <1 µM
C#C[C@]1(COC(=O)C(C)(C)CCC)O[C@@H](n2cnc3c(N)nc(F)nc32)C[C@@H]1O ; strain: NL4-3 ; changes: M184V ; cell line: U373-CD4-CXCR4 ; conditions: pseudotyped ; result: 0.091 µM
COC(=O)C(C)NP(=O)(OC[C@H]1O[C@@H](n2cc(F)c(=O)[nH]c2=O)C[C@@H]1O)Oc1ccccc1 ; cell line: CEM + CEM TK- ; result: >100 µM
Cc1cc(C)cc(Cc2c(I)c(=O)[nH]c(=O)n2COCc2ccccc2)c1 ; strain: SF33 ; changes: V106I ; cell line: TZM-bl ; read by: p24 / ELISA ; result: 0.014 µM
COc1cc2c(cc1Cc1cccc(Cl)c1F)c(=O)c(C(=O)O)cn2[C@H](CO)C(C)C ; strain: NL4-3 ; changes: E138K ; cell line: PM1 ; read by: RT activity ; result: 0.0007 µM
COCc1nc(Nc2ccc(C#N)cc2)nc(Nc2c(C)cc(/C=C/C#N)cc2C)c1C(=O)NCc1cccs1 ; strain: L1001+K103N ; cell line: MT4 CMV-EGFP ; result: 0.107 µM
O=C(CSc1nc(O)c(Cc2ccc(F)cc2)c(=O)[nH]1)Nc1cccc2ccccc12 ; cell line: MAGI ; result: >100 µM
O=c1[nH]c2c(c(=O)[nH]1)CCCC2 ; strain: BRU ; cell line: CEM-C113 + CEM/C113 ; read by: cytopathic effect / MTT ; result: >30 µg/mL
O=S(=O)(Oc1ccc2ccccc2c1)c1ccc2c(c1)C(=NO)c1cc(S(=O)(=O)Oc3ccc4ccccc4c3)ccc1-2 ; cell line: MAGI ; result: 2 µM
Cc1cccnc1CN(CCCCN)Cc1nccc2ccccc12 ; cell line: U87.CD4.CXCR4 ; read by: entry / luminescence ; result: 0.93 µM

A second listing of 5 rows from above:

structure,strain,changes,cell line,read by,conditions,result
O=c1[nH]c(=O)n(COCc2ccccc2)c2c1CCCC2,BRU,-,CEM-C113 + CEM/C113,cytopathic effect / MTT,-,>30 µg/mL
CC(C)n1ccn2cc(C(=O)NCc3ccc(F)cc3F)c(=O)c(O)c2c1=O,-,E138K/Q148K,HEK 293,luciferase,-,0.0651 µM
CC(C)C1=C2[C@H]3CC[C@@H]4[C@@]5(C)CC[C@H](OC(=O)[C@H]6C[C@@H](C(=O)O)C6(C)C)C(C)(C)[C@@H]5CC[C@@]4(C)[C@]3(C)CC[C@@]2(CCN(CCN(C)C)C(=O)c2nccs2)CC1=O,92HT599,-,MT-2,p24 / ELISA,-,<1 µM
COCCNC(=O)c1c(COC)nc(Nc2ccc(C#N)cc2)nc1Nc1c(C)cc(/C=C/C#N)cc1C,L1001+K103N,-,MT4 CMV-EGFP,-,-,0.00794 µM
O=C(OC(Cc1ccc(O)c(O)c1)C(=O)O)c1cc(-c2ccc(O)c(O)c2)c2cc(O)c(O)cc2c1,NL4-3,-,HuT-78,p24,-,>50 µM